According to paper PMC12405303:
For at least one entry, the source does not settle the construct or the ends of the probe.

Tested on: AcsS (His-AcsS, LysR-type regulator) (Vibrio parahaemolyticus)
Test: EMSA
Details: 0.8-4.8 pmol His-AcsS in 10 uL, 100 ng DNA, dose-dependent shift; 10 mM Tris-HCl pH 7.5, 50 mM NaCl, 1 mM MgCl2, 0.5 mM EDTA, 0.5 mM DTT, 0.625 ug/mL salmon sperm DNA, 100 ng DNA in 10 uL, room temperature 20 min; 6% native PAGE; recombinant protein; residues 1-294; protein details: 6xHis (pET28a); probe letters rebuilt from the primers and the genome

GCGCGAATTCAAGCGAACTCCATCTCATAAGAACGAATTAGTCCTTTGTGTTTCATGACCTAGTTTCCCTTCTAGCACGCTACCGCCATTGGGGTGATTGCCCAATAGCCGTGTCGCGAACGTTTTAATTGATGAGCAGAGACATTTCTATGAATGTTTCTGAATTTCTGTAACGCATAAATTCGAAGGTAAGTTTAAAAATTCGTGTTGTTTAGGTAAGTGGAAATAAGAATGAAATTTAGACCTTTGGCTAAGTTTTGCTGTTTAGGAAAAAGCTGGTACTTGCTAAGCAGGGATGAGGAAAAGTATTAAGAAGCGAGTTTGATTATAAAAACTAAGGTTTAATTTCTTGATGGTCTAACGGATGACTTATTTACAGGGAAGGTCGACGCGC (double strand) [cpsA regulatory DNA region]
binding result: binds
